Pooled drug test results. Numbers come from NIAID ChemDB, via PubChem.

All rows: enzyme or target tests; species: Hepatitis C virus; target: NS5B polymerase; read-out: IC50

a–b is a range or a potency band.

O=C(O)c1nc(-c2cccs2)nc2nc[nH]c12 ; result: >50 µM
O=C(Cn1nc(C(=O)Nc2nn[nH]n2)cc1C(=O)N[C@H]1CCCC[C@@H]1OCC1CCCCC1)N[C@H]1CCCC[C@@H]1OCc1ccccc1 ; result: 0.1–1 µM
CC(C)CCN1C(=O)C(C2=NS(=O)(=O)c3ccccc3N2)=C(O)C1(C)C ; result: 5.07 µM
COc1ccc(OC)c(C2Nc3ccc(C(=O)c4ccccc4)cc3NC3=C2C(=O)CCC3)c1 ; result: >33.3 µM
C[C@H](NC(=O)c1ccc2c(c1)nc(-c1ccoc1)n2C1CCCCC1)C(=O)Nc1ccc(/C=C/C(=O)O)cc1 ; result: <0.5 µM
Cc1ccc2c(c1)NC(c1ccc(C(C)C)cc1)C1=C(CC(C)(C)CC1=O)N2 ; result: 30.9 µM
CC(C)CCN1C(=O)C(C2=NS(=O)(=O)c3ccccc3N2)=C(O)[C@@H]1C(C)(C)C ; result: 0.019 µM
O=C(O)c1nc(-c2cccs2)ncc1O ; result: >50 µM
COC(=O)c1ccc(-c2ccc(NC(=O)C3(NC(=O)c4ccc5c(c4)nc(-c4ccoc4)n5C4CCCCC4)CCCC3)cc2)o1 ; result: 0.5–5 µM
CCCCOC(=O)c1ccc(CCCC)nc1Nc1ccc(N2CCOCC2)cc1 ; result: 3 µg/mL
CC1CCC(C(=O)C(=O)N(c2cc(-c3ccccc3)sc2C(=O)O)C(C)C)CC1 ; result: 0.29 µM
COc1ccc(C2Nc3cc(C(=O)c4ccccc4)ccc3NC3=C2C(=O)CC(C)(C)C3)cc1OC ; result: >42.7 µM
O=C(N[C@@H](Cc1c[nH]c2ccc(O)cc12)C(=O)O)c1ccc2nc(-c3ccccc3)c(-c3ccccc3)nc2c1 ; result: >50 µM
Cc1ccc(Nn2c(=O)c(C3=NS(=O)(=O)c4ccccc4N3)c(O)c3cccnc32)cc1 ; strain: Genotype 1A ; result: >5 µM
O=C(O)c1nc(-c2ccccn2)[nH]c(=O)c1O ; result: >50 µM
CC(C)CCN1C(=O)C(C2=NS(=O)(=O)c3ccccc3N2)=C(O)[C@@H]1C1CCCCC1 ; result: 0.019 µM
O=C1CC(c2ccccc2OCc2ccccc2)CC2=C1C(c1ccccc1)N(C(=O)c1ccccc1)c1ccccc1N2 ; result: >42.7 µM
O=C(O)/C=C/c1ccc(NC(=O)C(NC(=O)c2ccc3c(c2)nc(-c2ccoc2)n3C2CCCCC2)c2ccccc2)cc1 ; result: 0.5–5 µM
O=C(O)c1ccc2nc(-c3ccccn3)c(-c3ccccn3)nc2c1 ; result: >50 µM
CCSc1nc(Nc2ccc(N(CC)CC)cc2)cc(N2CCN(C(=O)c3ccnc(C)c3)CC2)n1 ; result: 3 µg/mL
CC(C)CCN1C(=O)C(C2=NS(=O)(=O)c3ccccc3N2)=C(O)[C@H]1C(C)C ; result: 6.4 µM
O=C(O)c1nc(-c2ncc[nH]2)[nH]c(=O)c1O ; result: 50 µM
O=C(O)/C(=C/c1ccc(-c2ccccc2)o1)NC(=O)c1cc(O)ccc1O ; result: <10 µM
CCSc1nc(N2CCN(C(=O)c3ccccc3)CC2)cc(N(C)c2ccc(N(CC)CC)cc2)n1 ; result: 3 µg/mL
CC(NC(=O)c1ccc2c(c1)nc(-c1ccoc1)n2C1CCCCC1)C(=O)Nc1ccccc1-c1ccc(C(=O)O)o1 ; result: 0.5–5 µM
Nc1ccc(C(=O)N/C(=C\c2ccc(-c3ccccc3)o2)C(=O)O)cc1 ; result: >30 µM
CC(NC(=O)c1ccc2c(c1)nc(-c1ccoc1)n2C1CCCCC1)C(=O)Nc1cccc(CC(=O)O)c1 ; result: 0.5–5 µM
N#Cc1cccc(S(=O)(=O)N(Cc2c(Cl)cccc2Cl)c2cccc(C(=O)NC3CCC3)c2)c1 ; strain: 1b ; result: 0.04 µM
O=C1C[C@H](c2ccccc2OCc2ccccc2)CC2=C1[C@H](c1cccc(OC(=O)c3ccc(Cl)cc3)c1)Nc1ccccc1N2 ; result: 70.1 µM
CCCC1(CC(=O)O)CCCC2c3cc(Br)cc(Cl)c3NC21 ; result: >33 µM
CC(C)CCN1C(=O)C(C2=NS(=O)(=O)c3ccccc3N2)=C(O)[C@@H]1C ; result: 1.44 µM
O=C(Cn1nc(C(=O)O)cc1C(=O)Nc1ccccc1OCC1CCC1)N[C@H]1CCCC[C@@H]1OCc1ccccc1 ; result: ≤0.05 µM
CCN(CC)c1ccc(C2CC(=O)C3=C(C2)Nc2ccccc2N(C(C)=O)C3c2ccc(OC)cc2)cc1 ; result: >42.7 µM
COc1ccc(NC(=O)c2cc(C(=O)N[C@H]3CCCC[C@@H]3OCc3ccccc3)n(CC(=O)NC3CCCC[C@@H]3OCc3ccccc3)n2)cc1 ; result: 0.05–0.1 µM
CC1(C)CC(=O)C2=C(C1)Nc1ccc(C(=O)c3ccccc3)cc1NC2c1ccccc1Cl ; result: >42.7 µM
O=C(N[C@@H](Cc1c[nH]c2ccccc12)C(=O)O)c1ccc2nc(-c3ccc(F)cc3)c(-c3ccc(F)cc3)nc2c1 ; result: <10 µM
COc1cc(C(=O)N2[C@@H](c3nccs3)[C@@H](c3cnccn3)C[C@@]2(Cc2ccccc2)C(=O)O)ccc1C(C)(C)C ; strain: genotype 1b ; result: 0.1–0.5 µM
CC(C)CCN1CC(O)=C(C2=NS(=O)(=O)c3ccccc3N2)C1=O ; result: 2.06 µM
CCC(=O)N1c2ccccc2NC2=C(C(=O)CC(C)(C)C2)C1c1cc(Cl)cc(Cl)c1OC ; result: >42.6 µM
COC(=O)c1sc(-c2ccccc2)cc1N(C)S(=O)(=O)c1cc(C)c(Cl)cc1C ; result: >100 µM
O=C1NC(=S)S/C1=C/c1ccc(-c2ccc([N+](=O)[O-])cc2Cl)o1 ; result: 30 µM
COc1cc(Cl)cc(COC(=O)C2=C(C)NC(=S)NC2)c1 ; result: 0.4 µM
CCCCOC(=O)c1ccc(CCCC)nc1N(CCC)c1ccc(N2CCOCC2)cc1 ; result: 3 µg/mL
O=C(O)/C(=C/c1ccc(-c2ccccc2Cl)s1)NC(=O)c1ccccc1 ; result: <10 µM
CSc1nc(C(=O)O)c(O)c(=O)[nH]1 ; result: <50 µM
CC1=C(C(=O)OCCc2cccc(Cl)c2)C(COC(=O)CCN(C)C)NC(=S)N1 ; result: 0.7 µM
COc1cc(C(=O)N2[C@@H](c3ncc(C)s3)[C@@H](c3cnccn3)C[C@@]2(Cc2ccsn2)C(=O)O)ccc1C(C)(C)C ; strain: Genotype 1A ; result: <0.15 µM
COc1ccc(NC(=O)c2ccc3c(c2)nc(-c2ccccn2)n3C2CCCCC2)cc1OC ; result: >7 µM
CO[C@@H]1[C@H](O)[C@@H](COP(=O)(O)OP(=O)(O)OP(=O)(O)O)O[C@H]1n1ccc(N)nc1=O ; result: 3.8 µM
COC(=O)c1nc(-c2cccs2)[nH]c(=O)c1O ; result: >50 µM
COc1cc(C(=O)N2[C@@H](c3ncc(C)s3)[C@@H](c3cnccn3)C[C@@]2(Cn2cccn2)C(=O)O)ccc1C(C)(C)C ; strain: Genotype 1A ; result: <0.15 µM
CCNC(=O)c1cc(C(=O)N[C@H]2CCCC[C@@H]2OCc2ccccc2)n(CC(=O)Nc2ccc3c(c2)OCO3)n1 ; result: ≥1 µM
COc1cc(C(=O)N2[C@@H](c3nccs3)[C@@H](c3cnccn3)C[C@@]2(CCS)C(=O)O)ccc1C(C)(C)C ; strain: genotype 1b ; result: 0.1–0.5 µM
Cc1ccc(C(=O)N/C(=C\c2ccc(-c3ccccc3Cl)s2)C(=O)O)cc1 ; result: >30 µM
CCSc1nc(N2CCN(C(=O)c3ccccc3)CC2)cc(N(C)c2ccc(N(C)Cc3ccccc3)cc2)n1 ; result: 3 µg/mL
Cc1ccc(C(=O)N/C(=C\c2ccc(-c3ccccc3)o2)C(=O)O)cc1 ; result: >30 µM
CCCC1(CC(=O)O)CCCC2c3c(F)cc(F)cc3NC21 ; result: 30 µM
O=C(N[C@@H](Cc1c[nH]c2ccccc12)C(=O)O)c1ccc2nc(-c3ccccc3)c(-c3ccccc3)nc2c1 ; result: 10–50 µM
COC(=O)c1sc(-c2ccccc2)cc1NS(=O)(=O)c1cc(C)c(Cl)cc1C ; result: >100 µM
COC(CC(=O)O)c1ccc(NC(=O)C2(NC(=O)c3ccc4c(c3)nc(-c3ccoc3)n4C3CCCCC3)CCCC2)cc1 ; result: 0.5–5 µM
O=C(O)c1ccc(-c2ccc(/C=C3/Sc4ccccc4C3=O)o2)cc1 ; result: 0.056–83.5 µM
NC(=O)c1nccn([C@@H]2O[C@H](CO)[C@@H](O)[C@H]2O)c1=O ; result: 0.1 µM
CCC[C@]1(CC(=O)O)OCCc2c1[nH]c1c(C)ccc(C#N)c21 ; strain: FC 1-20 genotype 1B ; result: 0.5 µM
O=C(O)/C(=C/c1ccc(-c2ccccc2Cl)s1)NC(=O)c1cccnc1 ; result: <10 µM
CNC(=O)c1c(-c2ccc(F)cc2)oc2cc(N(CCO)S(C)(=O)=O)c(C3CC3)cc12 ; strain: 1b ; result: 0.018 µM
N#Cc1ccc(Br)cc1COc1cccc(C(=O)CC(=O)C(=O)O)c1 ; result: 0.1 µM
COc1cc(C(=O)N2[C@@H](c3nccs3)[C@@H](c3cnccn3)C[C@@]2(Cc2cnc[nH]2)C(=O)O)ccc1C(C)(C)C ; strain: Genotype 1A ; result: >1 µM
O=C(O)c1cnc(N(C(=O)c2ccc(Oc3ccccc3)cc2)C2CCCCC2)s1 ; result: 5.5 µM
CC1=C(C(=O)OCCCSc2nc3ccccc3o2)C(CF)NC(=S)N1 ; result: 8 µM
COC(=O)[C@H](Cc1c[nH]c2ccccc12)NC(=O)c1ccc2nc(-c3ccc(F)cc3)c(-c3ccc(F)cc3)nc2c1 ; result: >50 µM
COc1cc(C(=O)N2[C@@H](c3nccs3)[C@@H](c3cnccn3)C[C@@]2(Cc2ccccn2)C(=O)O)ccc1C(C)(C)C ; strain: Genotype 1A ; result: >1 µM
O=C(O)/C=C/c1ccc(NC(=O)C2(NC(=O)c3ccc4c(c3)nc(-c3ccc[nH]3)n4C3CCC3)CCCC2)cc1 ; result: 0.5–5 µM
CCCC1(CC(=O)O)CCCC2c3cc(Cl)ccc3NC21 ; result: >33 µM

A second listing of 7 rows from above:

COc1cc(C(=O)N2[C@@H](c3nccs3)[C@@H](c3cnccn3)C[C@@]2(Cc2cnc[nH]2)C(=O)O)ccc1C(C)(C)C ; strain: Genotype 1A ; result: >1 µM
CCCC1(CC(=O)O)CCCC2c3cc(Cl)ccc3NC21 ; result: >33 µM
COc1cc(C(=O)N2[C@@H](c3ncc(C)s3)[C@@H](c3cnccn3)C[C@@]2(Cc2ccsn2)C(=O)O)ccc1C(C)(C)C ; strain: Genotype 1A ; result: <0.15 µM
COc1cc(C(=O)N2[C@@H](c3nccs3)[C@@H](c3cnccn3)C[C@@]2(Cc2ccccc2)C(=O)O)ccc1C(C)(C)C ; strain: genotype 1b ; result: 0.1–0.5 µM
COc1ccc(OC)c(C2Nc3ccc(C(=O)c4ccccc4)cc3NC3=C2C(=O)CCC3)c1 ; result: >33.3 µM
O=C1C[C@H](c2ccccc2OCc2ccccc2)CC2=C1[C@H](c1cccc(OC(=O)c3ccc(Cl)cc3)c1)Nc1ccccc1N2 ; result: 70.1 µM
O=C(O)c1ccc2nc(-c3ccccn3)c(-c3ccccn3)nc2c1 ; result: >50 µM

Neighbouring rows are from separate reports. ICn is the concentration giving n% inhibition.